Holding throughout (conditions): glycan lost; control: wild type
Data set [1] in a line: virion p24 Western blot, stable and transient 293T.
Data set [2] can be described thus: confocal co-localisation, stable 293T.
Data set [3] in a line: confocal co-localisation, transfected 293T.

B1: BST-2/tetherin: N92A (protein)
parent chain: MASTSYDYCRVPMEDGDKRCKLLLGIGILVLLIIVILGVPLIIFTIKANSEACRDGLRAVMECRNVTHLLQQELTEAQKGFQDVEAQAATCNHTVMALMASLDAEKAQGQKKVEELEGEITTLNHKLQDASAEVERLRRENQVLSVRIADKKYYPSSQDSSSAAAPQLLIVLLGLSALLQ
For B1, the “other: restriction of virus release” value in data set [1] was “decreases”. The localisation_or_trafficking entry in data set [2] is “no change”.

B2: BST-2/tetherin: N65,92A (protein)
parent chain: B1 parent chain
B2: in data set [3], the localisation_or_trafficking entry is “increases”.

B3: BST-2/tetherin: N65/92A (protein)
parent chain: B1 parent chain
Turning to B3, the “other: restriction of virus release” value in data set [1] is “decreases”. For the same protein, the localisation_or_trafficking entry in data set [2] is “no change”.

B4: BST-2/tetherin: N65A (protein)
parent chain: B1 parent chain
As to B4, the “other: restriction of virus release” value in data set [1] is “no change”.

The values are drawn from publication PMC4810252.
